## Percent effect of library compounds

Results are given as percent effect. The controls that fix the scale are not given in the record; negative values are as filed. This is part of a subset picked to be rich in strong results. Two or more numbers in one place are separate tests of the same structure; such repeats can differ widely.

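Whole-cell growth test on Mycobacterium tuberculosis, read after 3 days in glucose-containing 7H9 medium; the read-out is not stated. Concentration: 50 µM. Higher reads as more growth inhibition (inferred: compounds with an IC50 in retests scored well above the rest). Size under these conditions: about 69,000 compounds, about 760 of them at 50% or above in at least one test.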

structure,percent effect
CCN(CC)S(=O)(=O)CC(=O)Nc1ccsc1,-0.711% & -24.78%
Fc1ccc(F)c(CN2CCC(c3n[nH]c4ncccc34)CC2)c1.O=C(O)CC(O)(CC(=O)O)C(=O)O,25.52%
Cc1nc(-c2ccc(C(=O)O)cc2)cc(C2CCN(C(C)C)C2)n1 (stereo unspecified),8.179%
O=C(NCCSCc1ccco1)c1ccc(N2CCOCC2)cc1,5.63% & 9.511%
Cc1n[nH]cc1CNCC(c1cccc(F)c1)N(C)C (stereo unspecified),11.54% & 3.754%
CC(NC(=O)C1=NN(C)C(=O)CC1)c1ccc(Cl)cc1 (stereo unspecified),0.3178%
Cc1ncc(CN(Cc2ccccn2)Cc2ccccc2Cl)n1C.O=C(O)CC(O)(CC(=O)O)C(=O)O,39.44%
O=C(NCCCN1CCOCC1)c1ccc(-n2ccc3ccccc32)s1,38.77%
Cc1cccc(CSc2nnc(C)n2CC(N)=O)c1,6.71%
CC(C)(C)C(=O)NS(=O)(=O)c1ccc(C#N)c(C(F)(F)F)c1,5.089%
COc1ccc(CN(C)Cc2c(C)noc2C)c(Cl)c1OC,-7.436%
O=C(NC1CCN(c2ncccn2)CC1)c1sccc1C1CC1,2.093%
Cc1cc(C(=O)NCC2Cn3nnc(C)c3CO2)no1 (stereo unspecified),109.5% & 7.13%
O=C(COCc1nc(-c2ccncc2)no1)N1CCCC1,-2.336%
CCOc1ccc(Cl)cc1CCNC(=O)c1ccc(=O)n(C)c1,-25.67%
CC1CN(C)c2ccccc2CN1C(=O)c1cnsn1 (stereo unspecified),-12.8%
O=C(O)C(F)(F)F.[H][C@@]12CN(Cc3cccs3)C[C@]1([H])C(=O)N(c1cncnc1)C2,-6.401%
Cc1cccnc1CCNC(=O)CC1C(=O)NCCN1CCC(C)C (stereo unspecified),-1.199% & -42.11%
CC(C)c1csc(C(=O)N(C)c2ccc(Br)cn2)n1,93.34% & 89.15%
CCC1c2ccsc2CCN1C(=O)NCc1cc(C)on1 (stereo unspecified),-17.95%
O=C(O)C(F)(F)F.[H][C@@]12C[C@@H](c3nc(C4CC4)cs3)O[C@]1([H])CN(c1ncc(F)cn1)C2,59.9%
Cc1noc(C)c1CNC(=O)Nc1ccc(N2CCSCC2)cc1,-6.531%
Cc1noc(NC(=O)c2ccccc2)n1,-14.5%
CNC(=O)CCS(=O)(=O)Cc1nnnn1-c1ccccc1,13% & 1.25%
COc1cc(CN2CCCC2)ccc1OC12CCCN(CC1)C2 (stereo unspecified),23.6%
Cc1ccc(CN2CCOC3(CCN(C(=O)C4CC=CC4)CC3)C2)cc1.O=C(O)C(F)(F)F,37.78% & 31.13%
CC(C)(O)CCc1cccc(C(=O)NCC2COCCO2)c1 (stereo unspecified),14.64%
Cc1cnn(CC2CCCN2Cc2ncc(-c3ccccc3)o2)c1 (stereo unspecified),-8.824%
COc1cc(C(=O)NCCCc2ccccc2)on1,54.04% & 37.91%
CCc1nc2c(NCC3COc4ccccc4C3)ncnc2o1 (stereo unspecified),33.42%
COCCCNC(=O)Nc1cccc(Cl)c1-n1cccn1,-32.08%
Cc1cc2[nH]c(O)nc2cc1NCc1ccccc1,32.63% & 13.11%
COc1ccc(F)cc1CN1CCC(O)(CN2CCCCC2)C1 (stereo unspecified),8.756%
Cc1nc(C2CCCN(C(=O)c3ccc(N4CCCC4)nc3)C2)no1 (stereo unspecified),13.6%
[H][C@]12CC[C@]([H])(CN(Cc3cscn3)C1)N(Cc1cc(C(C)(C)C)[nH]n1)C2,18.9%
CCOc1ccnc(N2CCCN(c3nc(C4CC4)ns3)CC2)n1,21.09%
NC(=O)CSc1ccccc1NCc1nc(C2CC2)no1,-7.52% & -32.24%
CCCC(C)CS(=O)(=O)NCc1cccnc1OC (stereo unspecified),23.75%
CN1CCCN(C(=O)c2cc3c(s2)CCN3C(=O)C2CC2)CC1,9.894%
CS(=O)(=O)c1cccc2c1CCCN2C(=O)Cc1cccc(F)c1,17.26%
NC(=O)CN(Cc1ccc(Br)cc1)C(=O)c1ccncc1,-1.928%
Cc1nn(C)c2c(=O)n(C)c(NCC3CCCO3)nc12 (stereo unspecified),-2.254% & 12.07%
Cc1nc2c(c(N3CCN(c4ncccc4C(N)=O)CC3)n1)CCNC2,12.31%
Clc1cccc(-c2cccc(N3CCC(NC4CCOCC4)CC3)c2)c1,89.02%
COc1ccc(-c2nc(C3(NC(=O)OC(C)(C)C)CCC3)no2)cn1,18.76%
CCOc1ccccc1C(N)CC(C)C (stereo unspecified),6.224% & -2.08%
Cc1ccc(N2CCc3c(CN(C)Cc4ccco4)cncc3C2)nn1.Cl.Cl,52.5%
CCCNC(=O)c1ccc2c(OC)n(C)nc2c1,4.165% & 35.41%

The first 3 entries again:

| structure | percent effect |
|---|---|
| `CCN(CC)S(=O)(=O)CC(=O)Nc1ccsc1` | -0.711% & -24.78% |
| `Fc1ccc(F)c(CN2CCC(c3n[nH]c4ncccc34)CC2)c1.O=C(O)CC(O)(CC(=O)O)C(=O)O` | 25.52% |
| `Cc1nc(-c2ccc(C(=O)O)cc2)cc(C2CCN(C(C)C)C2)n1` (stereo unspecified) | 8.179% |

Source: ChEMBL document CHEMBL3988442, “University of Dundee, Small-Polar-MMV Screening Library” (2021).